A mixed list of measured activities; the numbers were collected in NIAID ChemDB.

Shared fields: toxicity to cultured cells; cell line: CEM; measure: CC50

Rows are shuffled and stem from different studies.

{"compound": "Cc1sccc1C(=S)Nc1ccc(Cl)c(C(=O)OC2CCCCC2)c1", "value": "15 µg/mL"}
{"compound": "O=C(O)CCNC(=O)c1ccccc1SSc1ccccc1C(=O)NCCC(=O)O", "value": "120 µM"}
{"compound": "C[C@H](CCC=C(c1cc(Cl)c(O)c(C(=O)O)c1)c1cc(Cl)c(O)c(C(=O)O)c1)[C@H]1CC[C@H]2[C@@H]3CC[C@@H]4CCCC[C@]4(C)[C@H]3CC[C@]12C", "value": "79 µM"}
{"compound": "COc1ccc(NC(=O)c2ccoc2C)cc1CC(=O)OC(C)C", "value": "52 µg/mL"}
{"compound": "FC(F)(F)c1ccc(C2ON=C(c3ccccc3)N2C23CC4CC(CC(C4)C2)C3)cc1", "value": ">200 µM"}
{"compound": "CCCCCCCCCC=C(c1cc(Cl)c(O)c(C(=O)O)c1)c1cc(Cl)c(O)c(C(=O)O)c1", "value": ">49.1 µM"}
{"compound": "O=c1ccn([C@H]2CCC[C@@H]2CO)c(=O)[nH]1", "value": ">100 µg/mL"}
{"compound": "CC1=C(C(=O)Nc2cc(C(=O)OC(C)C)c(F)cc2F)SCCO1", "value": ">100 µg/mL"}
{"compound": "COC(=O)[C@H](C)NP(=O)(OC[C@@H]1C=C[C@H](n2cnc3c(NC4CC4)nc(N)nc32)C1)Oc1ccccc1", "value": "13 µM"}
{"compound": "C#CCO/N=C/c1cc(NC(=S)c2ccoc2C)ccc1Cl", "value": "10 µg/mL"}
{"compound": "N[C@H]1CONC1=O", "value": ">20 µg/mL"}
{"compound": "O=C1c2sc(-c3ccccc3)cc2N(COCCO)S(=O)(=O)N1Cc1ccccc1", "value": "36 µg/mL"}
{"compound": "CCCC[C@@H](CCC(=O)O)NC(=O)c1ccccc1SSc1ccccc1C(=O)N[C@@H](CCCC)CCC(=O)O", "value": "25 µM"}
{"compound": "CCCCCCCCCCCCCCCC=C(c1cc(Cl)c(O)c(C(=O)O)c1)c1cc(Cl)c(O)c(C(=O)O)c1", "value": ">35 µM"}
{"compound": "Nc1nc2c(ncn2[C@H]2C=C[C@@H](CO)C2)c(=O)[nH]1", "value": "60.5 µg/mL"}
{"compound": "CC1=C(C(=O)Nc2cc(C(=O)OC(C)C)c(Cl)cc2F)SCCO1", "value": ">100 µg/mL"}
{"compound": "CCCCCCCCCCCCCCCCC(c1ccc(O)c(C(=O)O)c1)c1ccc(O)c(C(=O)O)c1", "value": "51.4 µM"}
{"compound": "N#Cc1ccc(C2ON=C(c3ccccc3)N2C23CC4CC(CC(C4)C2)C3)cc1", "value": "140 µM"}
{"compound": "CC(=O)OCCOCCN1C(=O)c2cc(-c3ccccc3)sc2N(Cc2ccccc2)S1(=O)=O", "value": ">50 µg/mL"}
{"compound": "CC1=C(C(=O)Nc2cc(Cl)cc(C(=O)OC(C)C)c2)SCCO1", "value": "60 µg/mL"}
{"compound": "CCCCCCCCCCCCCCCCCCCCCCCCCCCCCC=C(c1cc(Cl)c(O)c(C(=O)O)c1)c1cc(Cl)c(O)c(C(=O)O)c1", "value": ">220 µM"}
{"compound": "O=C1NS(=O)(=O)N(Cc2ccccc2)c2sc(-c3ccccc3)cc21", "value": ">50 µg/mL"}
{"compound": "Cc1occc1C(=S)Nc1ccc(Cl)c(C(=O)OC(C)C2CC2)c1", "value": "17 µg/mL"}
{"compound": "Nc1ccn([C@@H]2CC[C@@H](CO)O2)c(=O)n1", "value": "0.1 µM"}
{"compound": "CC(=O)ONc1ccc(S(=O)(=O)N(Cc2ccccc2)C[C@@H](O)[C@H](Cc2ccccc2)NC(=O)CCN2C(=O)c3ccccc3C2=O)cc1", "read by": "MTT", "value": ">100 µM"}
{"compound": "Cc1sccc1C(=O)Nc1ccc(Cl)c(OCCC(C)C)c1", "value": "7 µg/mL"}
{"compound": "CC(C)C[C@@H](CCC(=O)O)NC(=O)c1ccccc1SSc1ccccc1C(=O)N[C@H](CCC(=O)O)CC(C)C", "value": ">100 µM"}
{"compound": "C[N+](C)(C)C.C[N+](C)(C)C.C[N+](C)(C)C.C[N+](C)(C)C.O=S(=O)([O-])c1cc(N=Nc2cc(S(=O)(=O)[O-])c3cccnc3c2O)ccc1/C=C/c1ccc(N=Nc2cc(S(=O)(=O)[O-])c3cccnc3c2O)cc1S(=O)(=O)[O-]", "value": ">240 µM"}
{"compound": "Cc1occc1C(=S)Nc1ccc(Cl)c(OC(=O)OC(C)C)c1", "value": "25 µg/mL"}
{"compound": "CC1=C(C(=O)Nc2ccc(Cl)c(C(=O)OC(C)C)c2)SCCO1", "value": "8.8 µg/mL"}
{"compound": "C[C@]1(Cn2cnc3c(=O)[nH]c(N)nc32)[C@@H](COCP(=O)(O)O)C1(F)F", "value": ">100 µM"}
{"compound": "NC(=O)CNC(=O)c1ccccc1SSc1ccccc1C(=O)NCC(N)=O", "value": "22 µM"}
{"compound": "C#C[C@@]1(CO)C=C[C@H](n2cc(C)c(=O)[nH]c2=O)O1", "read by": "cell count", "value": ">100 µM"}
{"compound": "COCCOC(=O)c1cc(NC(=O)C2=C(C)OCCS2)ccc1Cl", "value": ">100 µg/mL"}
{"compound": "C=CCOC(=O)c1cc(NC(=S)c2ccoc2C)ccc1Cl", "value": "11 µg/mL"}
{"compound": "CCCCCCCCCCCCCCCC=C(c1cc(Cl)c(OC)c(C(=O)O)c1)c1cc(Cl)c(OC)c(C(=O)O)c1", "value": "25.9 µM"}
{"compound": "Clc1ccc(C2ON=C(c3ccccc3)N2C23CC4CC(CC(C4)C2)C3)cc1", "value": ">200 µM"}
{"compound": "NC1=NS(=O)(=O)N(Cc2ccccc2)c2nc(Cc3ccccc3)[nH]c21", "value": "9.6 µg/mL"}
{"compound": "Cc1cn(C2CC(CO)(CO)C2)c(=O)[nH]c1=O", "value": ">30 µg/mL"}
{"compound": "CCC[C@H](NC(=O)c1ccccc1SSc1ccccc1C(=O)N[C@@H](CCC)C(=O)O)C(=O)O", "value": ">80 µM"}
{"compound": "Cc1cccc(C2ON=C(c3ccccc3)N2C23CC4CC(CC(C4)C2)C3)c1", "value": "48 µM"}
{"compound": "CC(=O)OCCOCN1c2nc(Cc3ccccc3)[nH]c2C(N)=NS1(=O)=O", "value": "111 µg/mL"}
{"compound": "Cc1occc1C(=S)Nc1ccc(Cl)c(OCC(C)(C)C)c1", "value": "4.1 µg/mL"}
{"compound": "O=c1ccn(C2CC(CO)(CO)C2)c(=O)[nH]1", "value": ">30 µg/mL"}
{"compound": "O=C1c2cc(-c3ccccc3)sc2N(Cc2ccccc2)S(=O)(=O)N1CCOCCO", "value": "48 µg/mL"}
{"compound": "CC(C)CN(C[C@@H](O)[C@H](Cc1ccccc1)NC(=O)CCc1c[nH]c2ccccc12)S(=O)(=O)c1ccc(Br)cc1", "read by": "MTT", "value": "52.4 µM"}
{"compound": "C[C@]1(CO)[C@@H](Cn2cnc3c(=O)[nH]c(N)nc32)C1(F)F", "value": ">100 µM"}
{"compound": "C/C=C/COc1cc(NC(=O)c2ccoc2C)ccc1Cl", "value": "5.8 µg/mL"}
{"compound": "CC(C)CN(C[C@@H](O)[C@H](Cc1ccccc1)NC(=O)Cc1c[nH]c2ccccc12)S(=O)(=O)c1ccc(Br)cc1", "read by": "MTT", "value": "80.4 µM"}
{"compound": "Cc1sccc1C(=O)Nc1ccc(Cl)c(C(=O)OC(C)C)c1", "value": "5.5 µg/mL"}
{"compound": "CC1=C(C(=O)Nc2ccc(Cl)c(C(=O)OC3CCCCC3C)c2)SCCO1", "value": "12 µg/mL"}
{"compound": "O=C(N[C@H](CO)c1ccccc1)c1ccccc1SSc1ccccc1C(=O)N[C@H](CO)c1ccccc1", "value": "21 µM"}
{"compound": "Nc1nc2c(ncn2[C@H]2C=C[C@@H](CO)C2)c(=O)[nH]1", "value": "157 µM"}
{"compound": "O=c1ccn(C[C@H]2CCC[C@H]2CO)c(=O)[nH]1", "value": ">100 µg/mL"}
{"compound": "CCCCCCCCCC=C(c1cc(Br)cc(C(=O)O)c1OC)c1cc(Br)cc(C(=O)O)c1OC", "value": "68.3 µM"}
{"compound": "CC(=O)ONc1ccc(S(=O)(=O)N(CC(C)C)C[C@@H](O)[C@H](Cc2ccccc2)NC(=O)CCCc2c[nH]c3ccccc23)cc1", "read by": "MTT", "value": "86.2 µM"}
{"compound": "Cc1ccoc1C(=S)Nc1ccc(Cl)c(/C=N/OC(C)C)c1", "value": "3.1 µg/mL"}
{"compound": "O=c1[nH]c(=O)n([C@H]2CCC[C@@H]2CO)cc1I", "value": ">100 µg/mL"}
{"compound": "Cn1cc(C(=O)O)c(=O)c2cc(F)c(N3CC=C(c4ccccc4)CC3)c(C(F)(F)F)c21", "read by": "MTT", "value": "2.1 µM"}
{"compound": "CSc1sccc1C(=O)Nc1ccc(Cl)c(/C=N/OC(C)(C)C)c1", "value": "7.8 µg/mL"}
{"compound": "CN(C)c1ccc(C2ON=C(c3ccccc3)N2C23CC4CC(CC(C4)C2)C3)cc1", "value": "22 µM"}
{"compound": "CC(=O)ONc1ccc(S(=O)(=O)N(CC(C)C)C[C@@H](O)[C@H](Cc2ccccc2)NC(=O)COc2ccc3ccccc3c2)cc1", "read by": "MTT", "value": ">100 µM"}
{"compound": "O=C(OC1CCCCC1)c1cc(NC(=S)c2ccccc2)ccc1Cl", "value": "5.2 µg/mL"}
{"compound": "Nc1nc2c(ncn2COC(CO)CO)c(=O)[nH]1", "value": ">50 µg/mL"}
{"compound": "CCC(CC)OC(=O)c1cc(NC(=S)c2ccccc2N)ccc1Cl", "value": "29 µg/mL"}
{"compound": "CCC1=C(C(=O)Nc2ccc(Cl)c(C(=O)OC(C)C)c2)SCCO1", "value": ">100 µg/mL"}
{"compound": "CC(=O)ONc1ccc(S(=O)(=O)N(Cc2ccccc2)C[C@@H](O)[C@H](Cc2ccccc2)NC(=O)[C@H](C(C)C)N2C(=O)c3ccccc3C2=O)cc1", "read by": "MTT", "value": ">100 µM"}

9 of the rows above, restated:

{"compound": "Cn1cc(C(=O)O)c(=O)c2cc(F)c(N3CC=C(c4ccccc4)CC3)c(C(F)(F)F)c21", "read by": "MTT", "value": "2.1 µM"}
{"compound": "O=C(OC1CCCCC1)c1cc(NC(=S)c2ccccc2)ccc1Cl", "value": "5.2 µg/mL"}
{"compound": "CCCCCCCCCCCCCCCC=C(c1cc(Cl)c(O)c(C(=O)O)c1)c1cc(Cl)c(O)c(C(=O)O)c1", "value": ">35 µM"}
{"compound": "CCC1=C(C(=O)Nc2ccc(Cl)c(C(=O)OC(C)C)c2)SCCO1", "value": ">100 µg/mL"}
{"compound": "O=c1ccn([C@H]2CCC[C@@H]2CO)c(=O)[nH]1", "value": ">100 µg/mL"}
{"compound": "NC(=O)CNC(=O)c1ccccc1SSc1ccccc1C(=O)NCC(N)=O", "value": "22 µM"}
{"compound": "C/C=C/COc1cc(NC(=O)c2ccoc2C)ccc1Cl", "value": "5.8 µg/mL"}
{"compound": "C=CCOC(=O)c1cc(NC(=S)c2ccoc2C)ccc1Cl", "value": "11 µg/mL"}
{"compound": "O=c1ccn(C[C@H]2CCC[C@H]2CO)c(=O)[nH]1", "value": ">100 µg/mL"}

CCn: concentration that lowers growth or viability of the cells by n%.